Article PMC5669903
Like-named read-outs stand apart in the source and are kept apart here.

Protein sequences, listed by entry. Tags and fused reporters are not part of them. Lines headed by an entry give the natural chain unless they say otherwise; changes in a name come on top.
UniProt P69687, whole entry: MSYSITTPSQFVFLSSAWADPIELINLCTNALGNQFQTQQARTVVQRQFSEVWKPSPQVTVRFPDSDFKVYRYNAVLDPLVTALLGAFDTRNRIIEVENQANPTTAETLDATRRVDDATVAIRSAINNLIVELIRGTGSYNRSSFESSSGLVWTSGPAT
UniProt P69687, whole entry S16G/S50G/R72G/Y73G: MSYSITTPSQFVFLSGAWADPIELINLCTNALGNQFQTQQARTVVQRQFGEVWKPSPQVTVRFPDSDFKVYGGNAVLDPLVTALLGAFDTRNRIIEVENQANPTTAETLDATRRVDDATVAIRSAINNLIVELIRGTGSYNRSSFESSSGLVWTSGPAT

Columns and labels:
TMV CP discs [1] = target: T1, TMV CP discs (Tobacco mosaic virus, UniProt P69687); details: read-out: Kd to TMV CP discs (Fluo.)
TMV CP discs [2] = target: T1, TMV CP discs; details: read-out: Kd to TMV CP discs (ITC)
TMV CP mutant [3] = target: T2, TMV CP mutant (Tobacco mosaic virus, UniProt P69687, R72G/S16G/S50G/Y73G); details: read-out: Kd mutant (ITC)
TMV = assay: Curative activity against TMV, half leaf; details: for Curative activity against TMV: half leaf
TMV CP mutant [4] = target: T2, TMV CP mutant; details: read-out: Kd mutant (Fluo.)

SMILES: CC1NC(C(=O)N/N=C/c2ccc(Cl)cc2)Cc2c1[nH]c1ccccc21 (stereo not shown)
- Kd (TMV CP discs [1]): 1.25 µM
- Kd (TMV CP discs [2]): 31.2 µM
- Kd (TMV CP mutant [3]): 133 µM
- Curative activity against TMV (TMV; 100 μg/mL): 30.8%
- Curative activity against TMV (TMV; 500 μg/mL): 71.5%
- anti-TMV activity in words (TMV; 500 μg/mL, vivo experiment): significant anti-TMV activities
- Kd (TMV CP mutant [4]): 25.6 µM
